Compound potency records, mixed from different reports. Data source: NIAID ChemDB in PubChem.

Common to all: growth or infection tests; agent: HIV-1

ECn: concentration that inhibits the pathogen or its effect by n%. An empty or dashed field is not shown. Neighbouring rows are from separate reports.

structure,read-out,method,cell line,mutations,strain or isolate,result
Nc1ncnc2c1ncn2C[C@@H](CO)OCP(=O)(O)O,EC50,cytopathic effect / antigen / trypan blue,MT-4,-,IIIB,>125 µM
COc1cccc(OC)c1-c1c2nc(c(-c3c(OC)cccc3OC)c3ccc([nH]3)c(-c3c(OC)cccc3OC)c3nc(c(-c4c(OC)cccc4OC)c4ccc1[nH]4)C=C3)C=C2,EC50,RT activity,PBMC,-,LAV,41.8 µM
CC(C)[C@H](NC(=O)OCc1ccccc1)C(=O)N[C@@H](Cc1ccccc1)[C@@H](O)[C@H](O)[C@H](Cc1ccccc1)NC(=O)[C@@H](NC(=O)OCc1ccccc1)C(C)C,EC90,hybridisation,MT-2,-,RF,0.054 µM
Cc1ccc(-c2ccc3c(c2)C=C(C(=O)Nc2ccc(C[N+](C)(C)C4CCC(=O)CC4)cc2)CCO3)cc1,EC50,β-galactosidase,MAGI + MAGI-CCR5,-,JR-FL,0.0058 µM
NCC#Cc1cn([C@H]2C=C[C@@H](CO)O2)c(=O)[nH]c1=O,EC50,RT activity,CEM + CEM-SS,-,LAI,>100 µM
Cc1nn(-c2ccccc2)c2nc(NCc3ccccc3)oc12,EC50,cytopathic effect / MTT,MT-4,-,-,>23 µM
N#CN=C1N(Cc2ccc(O)cc2)[C@H](Cc2ccccc2)[C@H](O)[C@@H](O)[C@@H](Cc2ccccc2)N1Cc1ccc(O)cc1,EC50,hybridisation,MT-2,-,RF,<0.25 µM
O=C1N(CCCCCO)[C@H](Cc2ccccc2)[C@H](O)[C@@H](O)[C@@H](Cc2ccccc2)N1CCCCCO,EC50,-,MT-2,-,-,<0.953 µM
O=c1[nH]cnc2c1ncn2C[C@@H](CO)OCP(=O)(O)O,EC50,cytopathic effect / trypan blue,MT-4,-,IIIB,>125 µM
COc1cc(C)c(C(=O)O)c(O)c1C/C=C(\C)CC/C=C(\C)CCC=C(C)C,EC50,-,MT-4,-,-,>53 µM
Nc1ccc(-c2c3nc(c(-c4ccc(N)cc4)c4ccc([nH]4)c(-c4ccc(N)cc4)c4nc(c(-c5ccc(N)cc5)c5ccc2[nH]5)C=C4)C=C3)cc1,EC50,RT activity,PBMC,-,LAV,13.3 µM
COCCNC(=O)[C@@H](NC(=O)[C@H](Cc1ccc(OC)c(OC)c1OC)C[C@H](O)[C@H](Cc1ccccc1)NC(=O)OC(C)(C)C)C(C)C,EC50,RT activity,MT-2,-,MN,<0.03 µM
CCCN1C(=O)N(CCC)[C@H](Cc2ccccc2)[C@H](O)[C@@H](O)[C@H]1Cc1ccccc1,EC50,hybridisation,MT-2,-,RF,<54 µM
CCNc1nc2c(o1)c(C)nn2-c1ccccc1,EC50,cytopathic effect / MTT,MT-4,-,-,>29 µM
O=c1[nH]c(=O)n([C@H]2C=C[C@@H](CO)O2)cc1C#CCCOC1CCCCO1,EC50,RT activity,MT-4,-,IIIB,>100 µM
O=C1N(CCCCCO)[C@H](Cc2ccccc2)[C@H](O)[C@@H](O)[C@@H](Cc2ccccc2)N1Cc1ccc(CO)cc1,EC50,-,MT-2,-,-,<0.108 µM
CCc1cc(NCc2nc3c(Cl)ccc(Cl)c3o2)c(=O)[nH]c1C,EC50,p24,PBMC,RT-K70R,Clinical isolate (RT K70R),<0.2 µM
CCCC(=O)O[C@H]1CN2CC[C@H](O)[C@@H]2[C@@H](O)[C@@H]1O,EC50,syncytia,JM,-,GB8,0.89 µM
Cc1cn([C@H]2C[C@H](N=[N+]=[N-])[C@@H](CO)O2)c(=O)[nH]c1=O,EC50,p24 / ELISA,MT-2,-,HXB2,0.003 µM
CNC(=O)[C@@H](NC(=O)[C@H](OCc1ccc(Br)cc1)[C@H](O)[C@@H](O)[C@@H](OCc1ccc(Br)cc1)C(=O)N[C@H](C(=O)NC)C(C)C)C(C)C,EC50,cytopathic effect,MT-4,-,-,0.65 µM
CC(C)=CCN1c2cc(Cl)cc3[nH]c(=S)n(c23)C[C@@H]1C,EC50,-,MT-4,-,WT,<0.1 µM
C=C(CC[C@@H](C)[C@H]1CC[C@@]2(C)C3CCC4C(C)(C)[C@@H](OC(=O)CCCCCCCCCCCCCCC)CC[C@@]45C[C@@]35CC[C@]12C)C(C)(C)O,EC50,syncytia,1A2,-,MC99 (Tat/Rev defective),108.7 µg/mL
Nc1ncnc2c1ncn2CCOCP(=O)(O)O,EC50,cytopathic effect / trypan blue,MT-4,-,IIIB,2 µM
CO[C@H]1O[C@@H](n2ccc(=O)[nH]c2=O)C[C@@H]1N=[N+]=[N-],EC50,-,PBMC,-,-,0.32 µM
COc1cccc(-c2c3nc(c(-c4cccc(OC)c4)c4ccc([nH]4)c(-c4cccc(OC)c4)c4nc(c(-c5cccc(OC)c5)c5ccc2[nH]5)C=C4)C=C3)c1,EC50,RT activity,PBMC,-,LAV,>100 µM
CNC(=O)[C@@H](NC(=O)[C@H](OCc1ccc(-c2ccsc2)cc1)[C@H](O)[C@@H](O)[C@@H](OCc1ccc(-c2ccsc2)cc1)C(=O)N[C@H](C(=O)NC)C(C)C)C(C)C,EC50,cytopathic effect,MT-4,-,-,0.04 µM
O=C1N(CCCCCO)[C@H](Cc2ccccc2)[C@H](O)[C@@H](O)[C@@H](Cc2ccccc2)N1Cc1ccccc1,EC50,-,MT-2,-,-,<0.398 µM
O=C1N(Cc2ccc([N+](=O)[O-])cc2)[C@H](Cc2ccccc2)[C@H](O)[C@@H](O)[C@@H](Cc2ccccc2)N1Cc1ccc([N+](=O)[O-])cc1,EC50,hybridisation,MT-2,-,RF,<8.4 µM
C[N+](C)(Cc1ccc(NC(=O)C2=Cc3cc(-c4ccc(N5CCCC5)cc4)ccc3CCC2)cc1)C1CCOCC1,EC50,β-galactosidase,MAGI + MAGI-CCR5,-,JR-FL,0.0011 µM
COc1ccc(S(=O)(=O)N(CC(C)C)C[C@@H](O)[C@H](Cc2ccccc2)NC(=O)O[C@H]2CO[C@@H]3O[C@H]4OCC[C@H]4[C@@H]32)cc1,EC50,p24 / luminescence,MT-4,-,NL4-3,0.3563 µM
Oc1cccc(O)c1-c1c2nc(c(-c3c(O)cccc3O)c3ccc([nH]3)c(-c3c(O)cccc3O)c3nc(c(-c4c(O)cccc4O)c4ccc1[nH]4)C=C3)C=C2,EC50,RT activity,PBMC,-,LAV,>100 µM
Cc1ccc(-c2ccc3c(c2)C=C(C(=O)Nc2ccc(C[N+]4(C)CCCCC4)cc2)CC3)cc1,EC50,β-galactosidase,MAGI + MAGI-CCR5,-,JR-FL,0.28 µM
CNC(=O)[C@@H](NC(=O)[C@H](OCc1ccccc1)[C@H](O)[C@@H](O)[C@@H](OCc1ccccc1)C(=O)N[C@H]1c2ccccc2C[C@H]1O)C(C)C,EC50,cytopathic effect,MT-4,-,-,0.12 µM
COC(=O)CCCCCN1C(=O)N(CCCCCC(=O)OC)[C@H](Cc2ccccc2)[C@H](O)[C@@H](O)[C@H]1Cc1ccccc1,EC50,-,MT-2,-,-,<30.9 µM
O=c1[nH]c(=O)n([C@H]2C=C[C@@H](CO)O2)cc1C#CCCO,EC50,RT activity,MT-4,-,IIIB,>100 µM
Cc1ccc(-c2ccc3c(c2)C=C(C(=O)Nc2ccc(CC[N+]4(C)CCCCC4)cc2)CCO3)cc1,EC50,β-galactosidase,MAGI + MAGI-CCR5,-,JR-FL,0.056 µM
CCNC(=O)n1nnc2c(C)nn(-c3ccccc3)c21,EC50,cytopathic effect / MTT,MT-4,-,-,>81 µM
CC(C)(C)NC(=O)[C@@H]1CN(Cc2cccnc2)CCN1C[C@@H](O)C[C@@H](Cc1ccccc1)C(=O)N[C@H]1c2ccccc2C[C@H]1O,EC50,p24,MT-2,-,NL4-3 WT,0.021 µM
COc1cc(OC)cc(-c2c3nc(c(-c4cc(OC)cc(OC)c4)c4ccc([nH]4)c(-c4cc(OC)cc(OC)c4)c4nc(c(-c5cc(OC)cc(OC)c5)c5ccc2[nH]5)C=C4)C=C3)c1,EC50,RT activity,PBMC,-,LAV,6.7 µM
O=C1N(CCCCCO)[C@H](Cc2ccccc2)[C@H](O)[C@@H](O)[C@@H](Cc2ccccc2)N1Cc1ccc2ccccc2c1,EC50,-,MT-2,-,-,<0.199 µM
Nc1nc2c(ncn2CC(CO)OCP(=O)(O)O)c(=O)[nH]1,EC50,cytopathic effect / trypan blue,MT-4,-,IIIB,>125 µM
CC1=C(C(=O)N2CCC(C)(N3CCN(C(c4cccc(F)c4)C4CCN(S(=O)(=O)C5CC5)CC4)[C@@H](C)C3)CC2)C(C)N=CN1,EC50,p24,PBMC,-,M-tropic,0.001 µM
Nc1ccn([C@@H]2CO[C@H](CO)S2)c(=O)n1,EC50,-,PBMC,-,-,0.21 µM
CC(C)=CCC/C(C)=C/CC[C@@]1(C)C=Cc2c(cc(C)c(C(=O)O)c2O)O1,EC50,p24,H9,-,IIIB,0.15 µM
O=C(NCCCCCN1C(=O)N(CCCCCNC(=O)c2cccc(F)c2)[C@H](Cc2ccccc2)[C@H](O)[C@@H](O)[C@H]1Cc1ccccc1)c1cccc(F)c1,EC50,-,MT-2,-,-,<8.773 µM
CC(C)(C)NC(=O)c1ccccc1NC[C@@H](O)[C@H](Cc1ccccc1)NC(=O)[C@H](CC(N)=O)NC(=O)OCc1ccccc1,EC50,cytopathic effect,MT-4,-,-,3.31 µM
O=c1[nH]cnc2c1ncn2CCOCP(=O)(O)O,EC50,cytopathic effect / trypan blue,MT-4,-,IIIB,>125 µM
Cc1nn(-c2ccccc2)c2n[nH]nc12,EC50,cytopathic effect / MTT,MT-4,-,-,>200 µM
CNC(=O)[C@@H](NC(=O)[C@H](OCc1ccc(CCc2ccccc2)cc1)[C@H](O)[C@@H](O)[C@@H](OCc1ccc(CCc2ccccc2)cc1)C(=O)N[C@H](C(=O)NC)C(C)C)C(C)C,EC50,cytopathic effect,MT-4,-,-,2.05 µM
CCN(CC)c1ccc(/C=C(\C#N)c2nc3ccccc3[nH]2)cc1,EC50,p24 / ELISA,H9,-,-,0.00295 µM
N#CN=C1N(Cc2cccc(CO)c2)[C@H](Cc2ccccc2)[C@H](O)[C@@H](O)[C@@H](Cc2ccccc2)N1Cc1cccc(CO)c1,EC50,hybridisation,MT-2,-,RF,<0.59 µM
C=C1CC23CCC4[C@@](C)(CCC[C@@]4(C)C(=O)O)C2CC[C@H]1C3,EC50,syncytia,1A2,-,MC99 (Tat/Rev defective),13.7 µg/mL
Cc1cn([C@H]2C[C@H](N=[N+]=[N-])[C@@H](CO)O2)c(=O)[nH]c1=O,EC50,-,PBMC,-,-,0.004 µM
CNC(=O)[C@@H](NC(=O)[C@H](OCc1ccc(-c2nccs2)cc1)[C@H](O)[C@@H](O)[C@@H](OCc1ccc(-c2nccs2)cc1)C(=O)N[C@H](C(=O)NC)C(C)C)C(C)C,EC50,cytopathic effect,MT-4,-,-,0.24 µM
Cc1nn(-c2ccccc2)c2nn([C@@H]3O[C@H](CO)[C@@H](O)[C@H]3O)nc12,EC50,cytopathic effect / MTT,MT-4,-,-,>145 µM
CCOc1ccc(-c2ccc3c(c2)C=C(C(=O)Nc2ccc(C[N+](C)(C)C4CCOCC4)cc2)CCO3)cc1,EC50,β-galactosidase,MAGI + MAGI-CCR5,-,JR-FL,0.0018 µM
O=C(N[C@H]1c2ccccc2C[C@H]1O)[C@@H](C[C@@H](O)[C@@H](OCc1ccccc1)C(=O)N[C@H]1c2ccccc2C[C@H]1O)OCc1ccccc1,EC50,cytopathic effect,MT-4,-,-,1.44 µM
Cc1cn([C@H]2C[C@H](N=[N+]=[N-])[C@@H](CO)O2)c(=O)[nH]c1=O,EC50,MTT / p24,MT-2,-,IIIB,0.017 µg/mL
Cc1cn(CCOCP(=O)(O)O)c(=O)[nH]c1=O,EC50,cytopathic effect / trypan blue,MT-4,-,IIIB,>125 µM
COc1ccc(-c2c3nc(c(-c4ccc(OC)c(OC)c4)c4ccc([nH]4)c(-c4ccc(OC)c(OC)c4)c4nc(c(-c5ccc(OC)c(OC)c5)c5ccc2[nH]5)C=C4)C=C3)cc1OC,EC50,RT activity,PBMC,-,LAV,>100 µM
COC(=O)N[C@H](C(=O)N[C@@H](Cc1ccccc1)[C@@H](O)CN(Cc1ccc(-c2ccccn2)cc1)NC(=O)[C@@H](NC(=O)OC)C(C)(C)C)C(C)(C)C,EC50,p24 / luminescence,MT-4,L10F V32I M46I I54M A71V I84V,NL4-3,0.371 µM
O=C(Cc1cccnc1)NCCCCCN1C(=O)N(CCCCCNC(=O)Cc2cccnc2)[C@H](Cc2ccccc2)[C@H](O)[C@@H](O)[C@H]1Cc1ccccc1,EC50,-,MT-2,-,-,<3.129 µM
C[N+]1(CCc2ccc(NC(=O)C3=Cc4cc(-c5ccccc5)ccc4CC3)cc2)CCCCC1,EC50,β-galactosidase,MAGI + MAGI-CCR5,-,JR-FL,1.1 µM
O=C1N(CCCCCCO)[C@H](Cc2ccccc2)[C@H](O)[C@@H](O)[C@@H](Cc2ccccc2)N1Cc1ccc2ccccc2c1,EC50,-,MT-2,-,-,<0.264 µM
CCCC1(CCC)CC(O)=C(C(c2ccccc2)C2CC2)C(=O)O1,EC50,p24,MT-4,-,IIIB,5 µM